In US20230218548A1 (priority 2020, published 2023):

Each compound was assayed on SARS-CoV-2.
Type: cell-based, SARS-CoV-2 (USA-WA1/2020)

Row | Compound | Selectivity Index CC50/EC50
1 | NCC1(c2cccc(O[N+](=O)[O-])c2)C2CC3CC(C2)CC1C3 (stereo not shown) [NMT7] | 1.88
2 | CC12CC3(C)CC(CCN)(C1)CC(CO[N+](=O)[O-])(C2)C3 [NMT6] | 5.32
3 | CCC12CC3CC(N)(C1)CC(CO[N+](=O)[O-])(C3)C2 (stereo not shown) [NMT2] | 5.40
4 | CCC(O[N+](=O)[O-])C12CC3(C)CC(C)(CC(CCN)(C3)C1)C2 (stereo not shown) [NMT8] | 4.36
